Compound potency records, mixed from different reports. Data source: NIAID ChemDB in PubChem.

All rows: tests in culture; organism: HIV-1; method: ELISA; endpoint: EC50

An empty or dashed field is not shown. ECn is the concentration giving n% inhibition of infection, replication or growth. Two numbers with a dash give a range or band. Lines come from different laboratories, so protocols vary.

compound	setting	strain	cells	value
COc1cc([C@H](Cc2ccccc2)n2cc(C(=O)NC(=O)C[C@H](C)C(=O)O)c(=O)cc2Cc2ccccc2)oc(=O)c1		NL4-3	293T	3.2 µM
Nc1ncnc2c1ncn2[C@H]1C=C[C@@H](OCP(=O)(O)O)O1		LAI	MT-4	1.4 µM
CCOC(=O)c1cc(C(=O)c2ccccc2N)n2ccc(C(=O)NCc3ccccn3)cc12		NL4-3	H9	45.5 µM
CCOP(=O)(NCCCC(=O)OC)OC[C@H]1O[C@@H](n2cc(C)c(=O)[nH]c2=O)C[C@@H]1N=[N+]=[N-]		RF	C8166	100 µM
Nc1ncnc2c1ncn2[C@H]1C[C@H](S)[C@@H](CO)O1			MT-4	>100 µM
C/C(=N/O)c1ccc(Nc2nc(-c3ccncc3)nc3ccccc23)cc1		NL4-3	MT-4	<5 µM
CC(C)C[C@@H]1NC(=O)[C@@H](CC(C)C)NC(=O)[C@H](C(C)C)NC(=O)[C@H]2CSSC[C@@H](NC1=O)C(=O)N2		SF162	TZM-bl	1.4 µM
CCOC(=O)c1cc(C(=O)NCc2cccnc2)n2ccc(C(=O)c3ccco3)cc12		NL4-3	H9	55.2 µM
Cc1cn([C@H]2C[C@H](N=[N+]=[N-])[C@@H](COC(=O)OC[C@@H]3O[C@H]3CO)O2)c(=O)[nH]c1=O		IIIB	MT-4	0.008 µM
Cc1cn([C@H]2C[C@H](N=[N+]=[N-])[C@@H](CO)O2)c(=O)[nH]c1=O		IIIB	PBMC	0.00707 µM
CCCCCCOC(=O)[C@H](C)NP(=O)(OC[C@H]1O[C@@H](n2cc(C)c(=O)[nH]c2=O)C[C@@H]1N=[N+]=[N-])Oc1ccccc1		RF	C8166	0.1 µM
CC(=O)OC[C@H]1O[C@H](Oc2nc(O[C@H]3O[C@H](COC(C)=O)[C@@H](OC(C)=O)[C@H](OC(C)=O)[C@H]3OC(C)=O)c3ccccc3n2)[C@H](OC(C)=O)[C@@H](OC(C)=O)[C@@H]1OC(C)=O		NL4-3	MT-4	>10 µM
CCOC(=O)c1cc(C(=O)c2ccc(Cl)cc2)n2ccc(C(=O)NCc3ccccn3)cc12		NL4-3	H9	98.1 µM
CC(C)=CCC/C(C)=C/COc1ccc2ccc(=O)oc2c1		IIIB	C8166	59.7 µM
CCOC(=O)c1cc(C(=O)c2ccccc2)n2ccc(C(=O)NCc3ccccc3)cc12		NL4-3	H9	50.9 µM
[N-]=[N+]=N[C@H]1C[C@@H](N2C(=O)NC(=O)/C2=C/c2ccccc2)O[C@@H]1CO		IIIB	MT-4	>10 µM
CCN(CC)CCNc1ccnc(NCCCNC(=O)c2ccc(C(=O)NCCCNc3nccc(NCCN(CC)CC)n3)cc2)n1	6 d	MN	H9	0.05–0.15 µM
CC1(C)C=Cc2cc3ccc(=O)oc3cc2O1		IIIB	C8166	41.2 µM
COc1ccc2ccc3c(c2c1)OC1(CCN(Cc2ccc(C#N)cc2)CC1)NC3=O			PBMC	0.39 µM
CC1(C)C=Cc2c(ccc3ccc(=O)oc23)O1		IIIB	C8166	25.5 µM
CC(C)CN(C[C@@H](O)[C@H](Cc1cc(F)cc(F)c1)NC(=O)OC1C[C@@H]2COC3OC1C[C@@H]32)S(=O)(=O)c1ccc2nc(NC3CC3)sc2c1		NL4-3	MT-4	0.000034 µM
Fc1cc(Nc2nc(Nc3cc(F)c(F)c(F)c3)c3cc4c(cc3n2)OCCO4)cc(F)c1F		NL4-3	MT-4	<5 µM
CC1(C)C=Cc2c(cc(O)c3c(=O)cc(-c4ccc(O)cc4)oc23)O1		IIIB	C8166	27.9 µM
CCOC(=O)c1cc(C(=O)c2ccccc2)n2ccc(C(=O)NCc3cccnc3)cc12		NL4-3	H9	54.3 µM
Clc1cc(Nc2nc(-c3cccnc3)nc3ccccc23)cc(Cl)c1Cl		NL4-3	MT-4	5 µM
CCOP(=O)(NCCCCC(=O)OC)OC[C@H]1O[C@@H](n2cc(C)c(=O)[nH]c2=O)C[C@@H]1N=[N+]=[N-]		RF	C8166	100 µM
N=C1Sc2ccccc2C2=NCCCN12		92HT599	PBMC	0.55 µM
CN(C)c1nc(-c2cccnc2)nc2ccccc12		NL4-3	MT-4	>10 µM
COC(=O)[C@H](C)NP(=O)(OC[C@H]1O[C@@H](n2cc(C)c(=O)[nH]c2=O)C[C@@H]1N=[N+]=[N-])Oc1ccccc1		RF	C8166	0.2 µM
CCN(CC)CCNc1ccnc(NCCCNC(=O)c2cccc(C(=O)NCCCNc3nccc(NCCN(CC)CC)n3)c2)n1	6 d	MN	H9	0.05–0.15 µM
Fc1cc(Nc2nc(-c3cncc(Br)c3)nc3ccccc23)cc(F)c1F		NL4-3	MT-4	3 µM
Cc1cn([C@H]2C[C@H](N=[N+]=[N-])[C@@H](COP(=O)(N[C@@H](C)C(=O)OC3CCCCC3)OCC(Cl)(Cl)Cl)O2)c(=O)[nH]c1=O		RF	C8166	2 µM
CCOP(=O)(NCC(=O)OC)OC[C@H]1O[C@@H](n2cc(C)c(=O)[nH]c2=O)C[C@@H]1N=[N+]=[N-]		RF	C8166	10 µM
COCCOc1cc2nc(-c3cccnc3)nc(Nc3ccc(C(=O)O)cc3O)c2cc1OCCOC		NL4-3	MT-4	>25 µM
CCOC(=O)c1cc(C(=O)c2ccccc2)n2ccc(C(=O)NCc3ccccn3)cc12		NL4-3	H9	47 µM
CCCCC/C=C/C=C1/C(=O)CCC1C/C=C\CCCC(=O)O			U-937	0.8 µM

4 of the rows above, restated:

| compound | setting | strain | cells | value |
|---|---|---|---|---|
| CCOP(=O)(NCCCC(=O)OC)OC[C@H]1O[C@@H](n2cc(C)c(=O)[nH]c2=O)C[C@@H]1N=[N+]=[N-] |  | RF | C8166 | 100 µM |
| CC(C)CN(C[C@@H](O)[C@H](Cc1cc(F)cc(F)c1)NC(=O)OC1C[C@@H]2COC3OC1C[C@@H]32)S(=O)(=O)c1ccc2nc(NC3CC3)sc2c1 |  | NL4-3 | MT-4 | 0.000034 µM |
| CC(=O)OC[C@H]1O[C@H](Oc2nc(O[C@H]3O[C@H](COC(C)=O)[C@@H](OC(C)=O)[C@H](OC(C)=O)[C@H]3OC(C)=O)c3ccccc3n2)[C@H](OC(C)=O)[C@@H](OC(C)=O)[C@@H]1OC(C)=O |  | NL4-3 | MT-4 | >10 µM |
| CCCCCCOC(=O)[C@H](C)NP(=O)(OC[C@H]1O[C@@H](n2cc(C)c(=O)[nH]c2=O)C[C@@H]1N=[N+]=[N-])Oc1ccccc1 |  | RF | C8166 | 0.1 µM |